The values below come from article PMC5704035 (Biochemistry and Biophysics Reports, 2017).

Data set [1] concerns CN(C)c1ccc(N=Nc2ccccc2C(=O)O)cc1. As to the kind of experiment: purified protein. Particulars: 1 mM NADH, FMN, potassium phosphate pH 7.1, room temperature.
The test system of data set [2] is NC(=O)C1=CN([C@@H]2O[C@H](COP(=O)(O)OP(=O)(O)OC[C@H]3O[C@@H](n4cnc5c(N)ncnc54)[C@H](O)[C@@H]3O)[C@@H](O)[C@H]2O)C=CC1. As to the kind of experiment: purified protein. The note with it: 30 µM methyl red, FMN, potassium phosphate pH 7.1, room temperature.

The Km is the substrate concentration at which the rate is half of its maximum. In general, kcat refers to the number of substrate molecules converted per active site and unit of time at saturation. The kcat/Km is the second-order rate constant that governs catalysis at low substrate concentration.

On to “AzoA (Enterococcus faecalis V583; N121A/R21G)”, for which the results for the Km in data set [1] and in data set [2] were 10.8 µM and 79.5 µM, respectively. The catalytic constant (kcat) in data set [1] and in data set [2] was 74.7 s⁻¹ throughout.

With “AzoA (Enterococcus faecalis V583; N121A/R21K)”, in data set [1], the Michaelis constant (Km) turned out to be 31 µM, the kcat was found to be 43 s⁻¹ and the kcat/Km turned out to be 1.39e+06 M⁻¹ s⁻¹.

“AzoA (Enterococcus faecalis V583; N121Q)”: in data set [1], the Michaelis-Menten constant (Km) stood at 29 µM, the turnover number (kcat) came to 72.6 s⁻¹ and the specificity constant (kcat/Km) was 2.5e+06 M⁻¹ s⁻¹. Besides, in data set [2], the Km came out at 370.9 µM, the turnover number (kcat) came out at 72.6 s⁻¹ and the specificity constant (kcat/Km) turned out to be 200000 M⁻¹ s⁻¹.

For “AzoA (Enterococcus faecalis V583; N121Q/R21G)”, in data set [1], the Km is 16.3 µM, the kcat was determined as 95.3 s⁻¹ and the kcat/Km stood at 5.85e+06 M⁻¹ s⁻¹. For the same substance, in data set [2], the Km is on record as 190.4 µM, the kcat was found to be 95.3 s⁻¹ and the kcat/Km stood at 500000 M⁻¹ s⁻¹.

“AzoA (Enterococcus faecalis V583; N121Q/R21K)”: in data set [1], the Km is recorded as 33.8 µM, the kcat turned out to be 44.3 s⁻¹ and the kcat/Km turned out to be 1.31e+06 M⁻¹ s⁻¹.

AzoA (Enterococcus faecalis V583; R21K): in data set [1], the Km was found to be 19.5 µM, the kcat came to 45.9 s⁻¹ and the kcat/Km came out at 2.35e+06 M⁻¹ s⁻¹. Moreover, in data set [2], the Michaelis constant (Km) was determined as 121.8 µM, the kcat worked out at 45.9 s⁻¹ and the specificity constant (kcat/Km) came out at 380000 M⁻¹ s⁻¹.
